Target: esr1_human ESR1 (UniProt P03372)

For “Ras-related C3 botulinum toxin substrate 3 (Homo sapiens) (from UniProt P60763) S151A”, the “effect of a mutation on the interaction” value was “decreasing interaction”.
